Laboratory results as given in article PMC4193892, “3-O-Galloylated Procyanidins from Rumex acetosa L. Inhibit the Attachment of Influenza A Virus” (PLoS ONE, 2014).

Test system: recombinant purified HA of influenza virus A/California/07/2009 (H1N1)
Conditions: (8) 1.13 mM, (6) 2.18 mM; time dependent

O=C(O[C@@H]1Cc2c(O)cc(O)cc2O[C@@H]1c1cc(O)c(O)c(O)c1)c1cc(O)c(O)c(O)c1 [compound 6, reference compound]
monomeric HA band in Coomassie-stained gels: slight reduction of the monomeric HA band
